Pooled drug test results. Numbers come from NIAID ChemDB, via PubChem.

All rows: tests in culture; organism: HIV-1

Rows are shuffled and stem from different studies.

{"compound": "Cc1cn([C@H]2C[C@H](N=[N+]=[N-])[C@@H](CO)O2)c(=O)[nH]c1=O", "cells": "MT-4", "read-out": "EC50", "changes": "MDR (74V 41L 106A 215Y)", "read by": "MTT", "value": "0.08 µM"}
{"compound": "CN1c2c(-c3ccccc3)nn(CC(=O)N/N=C/c3ccc([N+](=O)[O-])cc3)c2-c2ccccc2S1(=O)=O", "cells": "PBMC", "strain": "LAV-1", "read-out": "EC90", "read by": "RT activity", "value": ">100 µM"}
{"compound": "Nc1nc2c(ncn2[C@@H]2C=C[C@H](CO)C2)c(=O)[nH]1", "cells": "MT-2C + MT-2", "strain": "IIIB", "read-out": "EC50", "read by": "cytopathic effect / XTT", "value": ">50 µg/mL"}
{"compound": "Cc1cn([C@H]2C=C[C@@H](COP(=O)(Nc3cc(C(=O)Nc4cc(C(=O)Nc5cc(C(=O)NCCC(=N)N)n(C)c5)n(C)c4)n(C)c3)OC(C)C)O2)c(=O)[nH]c1=O", "cells": "MT-4", "read-out": "EC50", "read by": "p24 / antigen", "value": "0.08 µM"}
{"compound": "CN(C)c1ncnc2c1ncn2[C@@H]1O[C@H](CO)[C@@H](N)[C@H]1O", "cells": "H9", "strain": "X", "read-out": "EC50", "read by": "RT activity", "value": "<2 µg/mL"}
{"compound": "Cc1cn([C@H]2C[C@H](N=[N+]=[N-])[C@@H](COP(=O)(Nc3cc(C(=O)Nc4cc(C(=O)Nc5cc(C(=O)NCCC(=N)N)n(C)c5)n(C)c4)n(C)c3)OC3CCCCC3)O2)c(=O)[nH]c1=O", "cells": "CEM", "read-out": "EC50", "read by": "syncytia", "value": "0.011 µM"}
{"compound": "Nc1cc(OC[C@@H]2O[C@H](CO)[C@@H](O)[C@H]2O)nc(N)n1", "cells": "CEM", "strain": "IIIB", "read-out": "EC50", "read by": "syncytia", "value": ">100 µM"}
{"compound": "COc1ccc(S(=O)(=O)N(CC(O)CN(CC2CCCC2)S(=O)(=O)c2ccccc2)CC2CCCC2)cc1", "cells": "CEM", "strain": "IIIB", "read-out": "EC90", "read by": "p24", "value": "1 µM"}
{"compound": "Cc1cn([C@H]2C[C@H](N=[N+]=[N-])[C@@H](CO)O2)c(=O)n(Cc2ccoc2)c1=O", "cells": "CEM-C113 + CEM/C113", "strain": "LAI", "read-out": "EC50", "read by": "cytopathic effect / MTT", "value": "143 µM"}
{"compound": "Nc1nc(OC[C@H]2CC[C@@H](COCc3ccccc3)O2)cc(OC[C@@H]2CC[C@H](COCc3ccccc3)O2)n1", "cells": "CEM", "strain": "IIIB", "read-out": "EC50", "read by": "syncytia", "value": ">10 µM"}
{"compound": "CC(C)C[C@H](NC(=O)[C@@H](NC(=O)[C@H](Cc1c[nH]c2ccccc12)NC(=O)CCCCCCC(=O)Nc1ccn([C@H]2CC[C@@H](CO)O2)c(=O)n1)C(C)C)[C@@H](O)CC(=O)NC(Cc1ccccc1)c1ccccc1", "cells": "MT-4", "read-out": "EC50", "read by": "syncytia", "value": "1 µM"}
{"compound": "Nc1n[nH]c2ccc(CN3C(=O)N(CC4CCC4)[C@H](Cc4ccccc4)[C@H](O)[C@@H](O)[C@H]3Cc3ccccc3)cc12", "cells": "MT-2", "strain": "RF", "read-out": "EC50", "changes": "PR-S184V", "value": "<0.53 µM"}
{"compound": "Cc1cn(C2C[C@H](N=[N+]=[N-])[C@@H](COP(=O)(Nc3cc(C(=O)Nc4cc(C(=O)Nc5cc(C(=O)NCCC#N)n(C)c5)n(C)c4)n(C)c3)OC(C)C)O2)c(=O)[nH]c1=O", "cells": "CEM/TK-", "read-out": "EC50", "read by": "p24 / antigen", "value": "1.15 µM"}
{"compound": "CC(C)C[C@H](NC(=O)[C@@H](NC(=O)[C@H](Cc1c[nH]c2ccccc12)NC(=O)CCCCC(=O)Nc1ccn([C@H]2CC[C@@H](CO[Si](c3ccccc3)(c3ccccc3)C(C)(C)C)O2)c(=O)n1)C(C)C)[C@@H](O)CC(=O)NC(Cc1ccccc1)c1ccccc1", "cells": "MT-4", "read-out": "EC50", "read by": "syncytia", "value": "10 µM"}
{"compound": "Cc1cn([C@H]2C=C[C@@H](COP(=O)(Nc3cc(C(=O)Nc4cc(C(=O)Nc5cc(C(=O)NCCC#N)n(C)c5)n(C)c4)n(C)c3)OC(C)C)O2)c(=O)[nH]c1=O", "cells": "CEM", "read-out": "EC50", "read by": "syncytia", "value": "1.12 µM"}
{"compound": "Nc1nc(N)nc(OC[C@H]2CC[C@@H](CO)O2)n1", "cells": "CEM", "strain": "IIIB", "read-out": "EC50", "read by": "syncytia", "value": ">250 µM"}
{"compound": "[N-]=[N+]=N[C@@H]1C[C@@H](n2cc(F)c(N)nc2=O)O[C@H]1CO", "cells": "CEM", "strain": "LAV", "read-out": "EC50", "read by": "RT activity", "value": "0.29 µM"}
{"compound": "CC(C)C[C@H](NC(=O)[C@@H](NC(=O)[C@H](Cc1c[nH]c2ccccc12)NC(=O)CCCCC(=O)Nc1ccn([C@H]2CC[C@@H](CO)O2)c(=O)n1)C(C)C)[C@@H](O)CC(=O)NC(Cc1ccccc1)c1ccccc1", "cells": "MT-4", "read-out": "EC50", "read by": "syncytia", "value": "10 µM"}
{"compound": "c1ccc(COC[C@H]2CC[C@@H](COc3cc(OC[C@H]4CC[C@@H](COCc5ccccc5)O4)ncn3)O2)cc1", "cells": "CEM", "strain": "IIIB", "read-out": "EC50", "read by": "syncytia", "value": ">10 µM"}
{"compound": "CC[C@H](C)[C@H](NC(=O)[C@@H](C[C@H](O)[C@H](CC1CCCCC1)NC(=O)CC(C)(C)C)C(C)C)C(=O)NCc1ccccn1", "cells": "PBMC", "read-out": "EC50", "value": "0.1–1 µM"}
{"compound": "CC(C)CN(CC(O)CCc1ccccc1C(=O)NC(C)(C)C)S(=O)(=O)c1ccccc1", "cells": "CEM", "strain": "IIIB", "read-out": "EC50", "read by": "p24", "value": "<1 µM"}
{"compound": "CC(C)(C)NC(=O)[C@@H]1CCCN1C(=O)[C@@H](O)[C@H](Cc1ccccc1)NC(=O)[C@H](CC(N)=O)NC(=O)OCc1ccccc1", "cells": "MOLT-4", "strain": "C-3", "read-out": "EC50", "read by": "p24", "value": "~10 µM"}
{"compound": "CN1c2c(-c3ccccc3)nn(CC(=O)N/N=C/c3ccccc3F)c2-c2ccccc2S1(=O)=O", "cells": "PBMC", "strain": "LAV-1", "read-out": "EC50", "read by": "RT activity", "value": ">100 µM"}
{"compound": "Cc1cn([C@H]2C[C@H](N=[N+]=[N-])[C@@H](COP(=O)(Nc3cc(C(=O)Nc4cc(C(=O)Nc5cc(C(=O)NCCC(=N)N)n(C)c5)n(C)c4)n(C)c3)OC(C)C)O2)c(=O)[nH]c1=O", "cells": "CEM/TK-", "read-out": "EC50", "read by": "syncytia", "value": "1.32 µM"}
{"compound": "Nc1cc(OCC2O[C@H](COCc3ccccc3)[C@@H](OCc3ccccc3)[C@H]2OCc2ccccc2)nc(N)n1", "cells": "CEM", "strain": "IIIB", "read-out": "EC50", "read by": "syncytia", "value": ">10 µM"}
{"compound": "COc1ccc(/C=N/NC(=O)Cn2nc(-c3ccccc3)c3c2-c2ccccc2S(=O)(=O)N3C)c(OC)c1OC", "cells": "PBMC", "strain": "LAV-1", "read-out": "EC90", "read by": "RT activity", "value": ">100 µM"}
{"compound": "CC1(C)Oc2ccc3ccc(=O)oc3c2[C@@H](OC(=O)C23CCC(C)(C(=O)O2)C3(C)C)[C@H]1OC(=O)C12CCC(C)(C(=O)O1)C2(C)C", "cells": "MT-4", "strain": "RTMDR1", "read-out": "EC50", "changes": "RT-M41L L74V V106A T215Y", "read by": "p24", "value": "7 µM"}
{"compound": "COc1ccc(S(=O)(=O)N(CC(C)C)C[C@@H](O)CCN(CC2CCCC2)S(=O)(=O)c2nc3ccccc3o2)cc1", "cells": "CEM", "strain": "IIIB", "read-out": "EC50", "read by": "p24", "value": "<1 µM"}
{"compound": "Cc1cn([C@H]2C[C@H](N=[N+]=[N-])[C@@H](COP(=O)(Nc3cc(C(=O)Nc4cc(C(=O)NCCC(=N)N)n(C)c4)n(C)c3)OC3CCCCC3)O2)c(=O)[nH]c1=O", "cells": "MT-4", "read-out": "EC50", "read by": "p24 / antigen", "value": "0.018 µM"}
{"compound": "O=C1N(Cc2ccc3[nH]nc(NCC4CC4)c3c2)[C@H](Cc2ccccc2)[C@H](O)[C@@H](O)[C@@H](Cc2ccccc2)N1Cc1ccc2[nH]nc(NCC3CC3)c2c1", "cells": "MT-2", "strain": "RF", "read-out": "EC50", "value": "<0.038 µM"}
{"compound": "Cc1cn([C@H]2C[C@H](N=[N+]=[N-])[C@@H](COP(=O)(Nc3cc(C(=O)Nc4cc(C(=O)Nc5cc(C(=O)Nc6cc(C(=O)NCCC(=N)N)n(C)c6)n(C)c5)n(C)c4)n(C)c3)OC3CCCCC3)O2)c(=O)[nH]c1=O", "cells": "MT-4", "read-out": "EC50", "read by": "p24 / antigen", "value": "0.07 µM"}
{"compound": "CN1c2c(-c3ccccc3)nn(CC(=O)N/N=C/c3ccc(Cl)c(Cl)c3)c2-c2ccccc2S1(=O)=O", "cells": "PBMC", "strain": "LAV-1", "read-out": "EC50", "read by": "RT activity", "value": ">100 µM"}
{"compound": "CNc1n[nH]c2ccc(CN3C(=O)N(Cc4ccc5[nH]nc(NC)c5c4)[C@H](Cc4ccccc4)[C@H](O)[C@@H](O)[C@H]3Cc3ccccc3)cc12", "cells": "MT-2", "strain": "RF", "read-out": "EC90", "value": "0.0279 µM"}
{"compound": "CC(=O)OCCCc1cc(Sc2cc(C)cc(C)c2)c([N+](=O)[O-])c(=O)[nH]1", "cells": "CEM + CEM-SS", "strain": "LAI", "read-out": "EC50", "read by": "cytopathic effect", "value": "1 µM"}
{"compound": "CC(Cc1ccccc1)NC(=S)Nc1nccs1", "cells": "MT-4", "strain": "IIIB", "read-out": "EC50", "read by": "cytopathic effect / XTT", "value": "1.2 µM"}
{"compound": "CN1c2c(-c3ccccc3)nn(CC(=O)N/N=C/c3ccccc3Br)c2-c2ccccc2S1(=O)=O", "cells": "PBMC", "strain": "LAV-1", "read-out": "EC90", "read by": "RT activity", "value": ">100 µM"}
{"compound": "CC(C)OC(=O)c1cc(NC(=S)OC(C)C)ccc1Cl", "cells": "CBMC", "strain": "IIIB", "read-out": "EC50", "read by": "syncytia", "value": "0.38 µM"}
{"compound": "CC(C)CN(CC(O)CC(=O)N1CCN(Cc2cccnc2)C[C@H]1C(=O)NC(C)(C)C)S(=O)(=O)c1ccccc1", "cells": "CEM", "strain": "IIIB", "read-out": "EC50", "read by": "p24", "value": "<1 µM"}
{"compound": "CCOc1cc(/C=N/NC(=O)Cn2nc(-c3ccccc3)c3c2-c2ccccc2S(=O)(=O)N3C)ccc1O", "cells": "PBMC", "strain": "LAV-1", "read-out": "EC90", "read by": "RT activity", "value": "15.5 µM"}
{"compound": "COc1ccc(S(=O)(=O)N(CC2CCCC2)C[C@@H](O)CN(CCc2ccccc2)C(=O)Oc2ccccc2)cc1", "cells": "CEM", "strain": "IIIB", "read-out": "EC50", "read by": "p24", "value": "<1 µM"}
{"compound": "Cc1cn([C@H]2C=C[C@@H](COP(=O)(Nc3cc(C(=O)Nc4cc(C(=O)Nc5cc(C(=O)NCCC#N)n(C)c5)n(C)c4)n(C)c3)OC3CCCCC3)O2)c(=O)[nH]c1=O", "cells": "MT-4", "read-out": "EC50", "read by": "p24 / antigen", "value": "0.4 µM"}
{"compound": "O=C(c1ccccc1)N(CCc1ccccc1)C[C@H](O)CN(CC1CCCC1)S(=O)(=O)C1CCCS(=O)(=O)C1", "cells": "CEM", "strain": "IIIB", "read-out": "EC90", "read by": "p24", "value": "1 µM"}
{"compound": "Cc1ccnc2c1NC(=O)c1cccnc1N2C1CC1", "cells": "MT-4", "read-out": "EC50", "changes": "AZT-resistant (67N 70R 215F 219Q)", "read by": "MTT", "value": "0.07 µM"}
{"compound": "O=C(N(Cc1ccccc1)[C@@H](CO)Cc1ccccc1)N(Cc1ccccc1)[C@@H](CO)Cc1ccccc1", "cells": "CEM + CEM-SS", "strain": "LAI", "read-out": "EC50", "read by": "cytopathic effect", "value": "0.08 µM"}

6 of the rows above, restated:

compound | cells | strain | read-out | changes | read by | value
c1ccc(COC[C@H]2CC[C@@H](COc3cc(OC[C@H]4CC[C@@H](COCc5ccccc5)O4)ncn3)O2)cc1 | CEM | IIIB | EC50 | - | syncytia | >10 µM
CC[C@H](C)[C@H](NC(=O)[C@@H](C[C@H](O)[C@H](CC1CCCCC1)NC(=O)CC(C)(C)C)C(C)C)C(=O)NCc1ccccn1 | PBMC | - | EC50 | - | - | 0.1–1 µM
Nc1nc(N)nc(OC[C@H]2CC[C@@H](CO)O2)n1 | CEM | IIIB | EC50 | - | syncytia | >250 µM
Nc1nc(OC[C@H]2CC[C@@H](COCc3ccccc3)O2)cc(OC[C@@H]2CC[C@H](COCc3ccccc3)O2)n1 | CEM | IIIB | EC50 | - | syncytia | >10 µM
Cc1cn([C@H]2C[C@H](N=[N+]=[N-])[C@@H](COP(=O)(Nc3cc(C(=O)Nc4cc(C(=O)Nc5cc(C(=O)NCCC(=N)N)n(C)c5)n(C)c4)n(C)c3)OC3CCCCC3)O2)c(=O)[nH]c1=O | CEM | - | EC50 | - | syncytia | 0.011 µM
CCOc1cc(/C=N/NC(=O)Cn2nc(-c3ccccc3)c3c2-c2ccccc2S(=O)(=O)N3C)ccc1O | PBMC | LAV-1 | EC90 | - | RT activity | 15.5 µM

a–b is a range or a potency band. ECn: concentration that inhibits the pathogen or its effect by n%. An empty or dashed field is not shown.